In publication PMC4707532:

Biological target: Human TLR-2 (human) (UniProt O60603)
Experiment: SPR; Biacore X100; TLR immobilised on CM5 chip by amine coupling (300-500 RU); lubricin injected at at least 5 concentrations, 0.576–420 μg/mL, 30 μL/min, contact 1 min, 25 °C; PBS with 0.01% (v/v) Tween 20; regeneration 1 M NaCl

- Kd: 330 nM
Substance: Full length recombinant human lubricin protein (rhPRG4) (from UniProt Q92954 25-1404) (natural protein; other documents disagree on this pair)
